Results taken from paper PMC11717252, “Biophysical and biochemical evidence for the role of acetate kinases (AckAs) in an acetogenic pathway in pathogenic spirochetes” (PLOS ONE, 2025).

Experiments:
[1] = tested on: Nc1ncnc2c1ncn2[C@@H]1O[C@H](COP(=O)(O)OP(=O)(O)O)[C@@H](O)[C@H]1O; experiment: purified protein; settings: ATP-forming direction, co-substrate acetyl phosphate, 20 mM MgCl2, pH 7.5, 37 °C
CC(=O)OP(=O)(O)O = experiment: purified protein; settings: ATP-forming direction, co-substrate ADP, 20 mM MgCl2, pH 7.5, 37 °C

| Substance | Km [1] [µM] | kcat [1] [s⁻¹] | kcat/Km [1] [M⁻¹ s⁻¹] | Km (CC(=O)OP(=O)(O)O) [µM] | kcat (CC(=O)OP(=O)(O)O) [s⁻¹] | kcat/Km (CC(=O)OP(=O)(O)O) [M⁻¹ s⁻¹] |
| --- | --- | --- | --- | --- | --- | --- |
| TV0924 (TREVI0001_0924; rTV0924; TvAckA) (Treponema vincentii ATCC 35580; E388A) | 1700 ± 200 | 0.46 | 260 | 155 ± 12 | 0.329 | 2040 |
| TV0924 (TREVI0001_0924; rTV0924; TvAckA) (Treponema vincentii ATCC 35580; R241A) | 440 ± 40 | 8.52 | 18700 | 2380 ± 150 | 9.54 | 3900 |
| TV0924 (TREVI0001_0924; rTV0924; TvAckA) (Treponema vincentii ATCC 35580; N7A) | 1100 ± 50 | 13.4 | 11900 | 125 ± 16 | 11.2 | 88000 |
| TV0924 (TREVI0001_0924; rTV0924; TvAckA) (Treponema vincentii ATCC 35580; H180A) | – | – | – | 18600 ± 1400 | 98 | 5300 |
| TV0924 (TREVI0001_0924; rTV0924; TvAckA) (Treponema vincentii ATCC 35580; R91A) | 490 ± 20 | 2.8 | 5500 | 4000 ± 1100 | 3.2 | 730 |
